Measurements reported in PubChem BioAssay AID504761 (Drosophila RNAi Screening Center, 2011).
The deposit covers about 22,000 reagents; shown is an unselected part of those that have a named target and a result. Over the whole deposit, 116 (0.52%) got an active call. 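Calls depend on retest data that are not deposited; infection was ranked per plate without normalising between plates; the unit of the infection score is not given.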 Raw values vary from plate to plate and are shown uncorrected. A number with no mark means an inactive call. Reagents against one gene are numbered here. Not stated in the record: the amount of reagent, the time to read-out.

Aim: 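Genome-wide fly cell screen for genes dengue virus requires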 (primary screen)
Cell system: D.Mel-2 cells from Drosophila
Reagent: long dsRNA against Drosophila genes
Treatment: infection with dengue virus type 2; dose and infection time not stated
Read-out: 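Cells stained for dengue envelope protein and imaged; percent of infected cells per well on duplicate plates, ranked by infection, with stained nuclei counted for cell number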
Reading the numbers: infection score: higher = more virus-infected cells; cell count: higher = more cells in the well
Hit rule: 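Low infection ranks in the two replicates (chance level up to 0.065) followed by a retest with a 1.5-fold or larger significant decrease, p below 0.05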
Calls: active = confirmed: knock-down lowers infection; inactive = not picked or not confirmed

After knock-down of Papst2 (PAPS transporter 2) #1, the screen gave infection score, replicate 1 = 3.6; infection score, replicate 2 = 6.53; cell count, replicate 1 = 1139; cell count, replicate 2 = 7060.
Silencing of Papst2 (PAPS transporter 2) #2 gave: infection score, replicate 1 = 23.7; infection score, replicate 2 = 3.57; cell count, replicate 1 = 6409; cell count, replicate 2 = 6210.
Depletion of IntS12 (Integrator 12) resulted in: infection score, replicate 1 = 7.29; infection score, replicate 2 = 3.94; cell count, replicate 1 = 4004; cell count, replicate 2 = 4443.
Rox8 #1 showed infection score, replicate 1 = 1.63; infection score, replicate 2 = 5.17; cell count, replicate 1 = 6441; cell count, replicate 2 = 6054.
Rox8 #2 showed infection score, replicate 1 = 16.3; infection score, replicate 2 = 16.7; cell count, replicate 1 = 2230; cell count, replicate 2 = 6085.
Knock-down of CG7191 #1 came out at: infection score, replicate 1 = 3.34; infection score, replicate 2 = 5.47; cell count, replicate 1 = 6130; cell count, replicate 2 = 5884.
With knock-down of CG7191 #2, the record shows infection score, replicate 1 = 13.4; infection score, replicate 2 = 5.57; cell count, replicate 1 = 5869; cell count, replicate 2 = 6433.
After knock-down of CG2082 #1, the record shows infection score, replicate 1 = 14.9; infection score, replicate 2 = 20.1; cell count, replicate 1 = 5540; cell count, replicate 2 = 3724.
For CG2082 #2, the values are infection score, replicate 1 = 6.8; infection score, replicate 2 = 3.61; cell count, replicate 1 = 6483; cell count, replicate 2 = 6680.
For CG1103, the entry reads infection score, replicate 1 = 6.07; infection score, replicate 2 = 8.22; cell count, replicate 1 = 6180; cell count, replicate 2 = 6264.
With knock-down of FucT6 (alpha1,6-fucosyltransferase) #1, the screen gave infection score, replicate 1 = 2.19; infection score, replicate 2 = 1.93; cell count, replicate 1 = 6588; cell count, replicate 2 = 6412.
FucT6 (alpha1,6-fucosyltransferase) #2 gave infection score, replicate 1 = 1.58; infection score, replicate 2 = 2.6; cell count, replicate 1 = 6885; cell count, replicate 2 = 6503.
For pall (pallbearer), the values are infection score, replicate 1 = 18.6; infection score, replicate 2 = 11.7; cell count, replicate 1 = 4213; cell count, replicate 2 = 3872.
CG34166 #1 showed infection score, replicate 1 = 0.83; infection score, replicate 2 = 1.76; cell count, replicate 1 = 6010; cell count, replicate 2 = 6254.
Silencing of CG34166 #2 came out at: infection score, replicate 1 = 3.78; infection score, replicate 2 = 19.4; cell count, replicate 1 = 1192; cell count, replicate 2 = 5715.
ase (asense) showed infection score, replicate 1 = 1.79; infection score, replicate 2 = 1.63; cell count, replicate 1 = 6661; cell count, replicate 2 = 6951.
Silencing of ScsbetaA (Succinyl-coenzyme A synthetase beta subunit, ADP-forming) #1 gave: infection score, replicate 1 = 8.54; infection score, replicate 2 = 4.94; cell count, replicate 1 = 5705; cell count, replicate 2 = 6322.
For ScsbetaA (Succinyl-coenzyme A synthetase beta subunit, ADP-forming) #2, the values are infection score, replicate 1 = 1.93; infection score, replicate 2 = 7.08; cell count, replicate 1 = 6675; cell count, replicate 2 = 6711.
With knock-down of CG16896, the record shows infection score, replicate 1 = 29.1; infection score, replicate 2 = 34.4; cell count, replicate 1 = 3356; cell count, replicate 2 = 4768.
Knock-down of RpL36A (Ribosomal protein L36A) #1 gave: infection score, replicate 1 = 0.79; infection score, replicate 2 = 14.9; cell count, replicate 1 = 6359; cell count, replicate 2 = 4112.
Against RpL36A (Ribosomal protein L36A) #2, the values are infection score, replicate 1 = 10.8; infection score, replicate 2 = 11.5; cell count, replicate 1 = 1612; cell count, replicate 2 = 2102.
Knock-down of CG18662 resulted in: infection score, replicate 1 = 9.23; infection score, replicate 2 = 7.87; cell count, replicate 1 = 5514; cell count, replicate 2 = 6781.
With knock-down of CG4781, the record shows infection score, replicate 1 = 9.03; infection score, replicate 2 = 3.24; cell count, replicate 1 = 6082; cell count, replicate 2 = 6916.
TMEM216 (Transmembrane protein 216) #1 showed infection score, replicate 1 = 1.58; infection score, replicate 2 = 8.74; cell count, replicate 1 = 5878; cell count, replicate 2 = 6110.
With knock-down of TMEM216 (Transmembrane protein 216) #2, the screen gave infection score, replicate 1 = 6.53; infection score, replicate 2 = 7.14; cell count, replicate 1 = 245; cell count, replicate 2 = 6584.
Against CG12481, the entry reads infection score, replicate 1 = 2.18; infection score, replicate 2 = 1.25; cell count, replicate 1 = 6598; cell count, replicate 2 = 6655.
Against CycJ (Cyclin J) #1, the values are infection score, replicate 1 = 5.05; infection score, replicate 2 = 6.02; cell count, replicate 1 = 1863; cell count, replicate 2 = 1262.
Against CycJ (Cyclin J) #2, the entry reads infection score, replicate 2 = 17.4; cell count, replicate 1 = 306; cell count, replicate 2 = 2687.
